Some of the results follow. Potency and affinity values are given separately. The source made the active and inactive calls. No stated cut-off is given here; in the data, inconclusive means inhibition above about 27% without an active follow-up result; inactive means below that.
experiment: H1N1 influenza NS1A inhibitors, functional cell based assay (AID 504329); settings: percent inhibition, at 12.5 µM, hits give high values

SMILES	inhibition
CCCC1OP(N)(=O)OCC1CC (stereo not given)	inactive: 2.52%
CC(=O)Nc1ccc([As](=O)(O)O)cc1	inactive: 14.2%
O=C(O)c1ccccc1[As](=O)(O)O	inactive: -1.74%
O=P(Nc1nc2ccc(Cl)cc2s1)(c1ccccc1)c1ccccc1	inactive: 11.7%
CN(C(=O)Cc1ccc(Cl)c(Cl)c1)[C@H]1CCCC[C@@H]1N1CCCC1	inactive: 2.82%
Cc1ccc(NP(=O)(Oc2ccccc2F)Oc2ccccc2F)nc1	inactive: -2.2%
Cc1cc(SC(NC(=O)c2ccc(F)cc2)C(Cl)(Cl)Cl)ncn1 (stereo not given)	inactive: 2.12%
CCOP(=O)(Nc1ccccc1)OCC	inactive: -11.2%
CCN(N=Nc1nonc1N)c1nonc1N	inactive: 3.05%
Nc1cccc2ccc([As](=O)(O)O)cc12	inactive: 3.35%
NC(=O)c1cc([N+](=O)[O-])cc([N+](=O)[O-])c1N	inactive: -18.2%
Cc1ccc(N/C(=N/P(=O)(N2CCOCC2)N2CCOCC2)N2CCOCC2)cc1	inactive: -3.89%
CN(C(=O)Cc1ccc(Cl)c(Cl)c1)[C@H]1CCCC[C@H]1N1CCCC1	inactive: -10.5%
COc1ccccc1OP(=O)(Nc1ccc(C)cn1)Oc1ccccc1OC	inactive: -1.88%
CN1CCCC(OC(=O)C(c2ccccc2)c2ccccc2)C1 (stereo not given)	inactive: 8.85%
Clc1ccc(Cl)c(NC2=NCC(CBr)S2)c1 (stereo not given)	inactive: -7.81%
Nc1cc(N)c2nonc2c1[N+](=O)[O-]	inactive: 4.6%
CC(C)CC(=O)NC(Sc1ccc(Cl)cc1)C(Cl)(Cl)Cl (stereo not given)	inactive: -0.41%
O=C(NC(Sc1ccncn1)C(Cl)(Cl)Cl)c1ccccc1 (stereo not given)	inactive: -4.39%
Oc1ccccc1CNc1ccccn1	inactive: -4.9%
COc1ccc(C2=NCC(CBr)S2)cc1 (stereo not given)	inactive: -7.73%
CC(=O)N1C2C3N(C(C)=O)C1C1N(C(C)=O)C(C(N1C(C)=O)N3C(C)=O)N2C(C)=O	inactive: 7.57%

SMILES	inhibition
O=[N+]([O-])c1cccc2n[nH]nc12	inactive: 4.38%
O=[N+]([O-])c1cc([N+](=O)[O-])c(CCNc2ccccc2)c([N+](=O)[O-])c1	inactive: 7.77%
CCc1nc2c(n1)c1c(non1O)c1c2no[n+]1[O-]	inactive: -1.97%
Cc1ccc(NP(=O)(Oc2ccccc2)Oc2ccccc2)nc1	inactive: -5.16%
C[N+]1=C2C=CC=CC=C2SC12C([N+](=O)[O-])=CC([N+](=O)[O-])=C[C-]2[N+](=O)[O-] (stereo not given)	inactive: 24.6%
Nc1ccc([As](=O)(O)c2ccc(N)cc2)cc1	inactive: -1.67%
CCN(/C(=N/P(=O)(N1CCOCC1)N1CCOCC1)N1CCOCC1)c1ccc(OC)cc1	inactive: 7.75%
CN(C)C(=O)OCCc1n(C)cc[n+]1C	inactive: -4.08%
CC(C)=N/N=C(\N)N[N+](=O)[O-]	inactive: -0.76%
CC1CCN(C(=O)Oc2c(Cl)cc(Cl)c3cccnc23)CC1	inactive: -7.04%
O=P1(N(CCCl)CCCl)OCCCS1 (stereo not given)	inactive: -0.74%
O=C(Nc1cc([As](=O)(O)O)ccc1O)c1ccccc1	inactive: -3.3%
CC(C)(C)C(=O)NC(Sc1ccncn1)C(Cl)(Cl)Cl (stereo not given)	inactive: 21.9%
O=[N+]([O-])c1ncn(CCn2ncnc2[N+](=O)[O-])n1	inactive: 1.52%
COC(=O)C1(C)COP(=O)(Nc2ccccc2)OC1 (stereo not given)	inactive: -2.13%
O=[N+]([O-])c1cccc(NC2=NCC(CBr)S2)c1 (stereo not given)	inactive: -0.34%
O=C(O)CNc1ccc([As](=O)(O)O)cc1	inactive: -2.49%
COc1ccc(N)c([N+](=O)[O-])c1[N+](=O)[O-]	inactive: 4.21%
CN(C)C1(CNC(=O)c2ccc(Cl)c(S(N)(=O)=O)c2)CCCCC1	inactive: -17.3%
O=P(Nc1ccccn1)(c1ccc(Br)cc1)c1ccc(Br)cc1	inactive: 2.97%
C[C@H]1OP(=O)(Oc2ccccc2)[C@H](O)[C@H](O)[C@H]1N=[N+]=[N-] (stereo not given in full)	inactive: -18.8%
O=P(Nc1nc2ccccc2s1)(c1ccccc1)c1ccccc1	inactive: -15.2%

SMILES	inhibition
O=[N+]([O-])c1ncn(CCn2cnc([N+](=O)[O-])n2)n1	inactive: 2.97%
CC(=O)NC(SC(=S)N(C)C)C(Cl)(Cl)Cl (stereo not given)	inactive: -5.94%
O=[N+]([O-])c1ccc(O)c(/C=N/Nc2ccc([N+](=O)[O-])cc2[N+](=O)[O-])c1	inactive: 17%
O=[As](O)(c1ccccc1)c1ccc(O)cc1	inactive: 13.2%
C(Cc1nn[nH]n1)Cc1nn[nH]n1	inactive: -1.32%
Nc1ccc([As](=O)(O)c2ccc([N+](=O)[O-])cc2)cc1	inactive: -5.53%
O=C(OC1CN2CCC1CC2)c1cccc(Cl)c1 (stereo not given)	inactive: -7.15%
O=P(Nc1nccs1)(c1ccccc1)c1ccccc1	inactive: -9.27%
CC(C)C(=O)NC(Sc1ccccc1)C(Cl)(Cl)Cl (stereo not given)	inactive: -1.5%
c1nnnn1CCn1cnnn1	inactive: 4.36%
CCOc1ccc(C2=NCC(CBr)S2)cc1 (stereo not given)	inactive: 3.84%
O=P1(Nc2nc3ccc(Cl)cc3s2)COc2ccccc2O1 (stereo not given)	inactive: 10.8%
CCc1cc(O)c([N+](=O)[O-])c(C)c1[N+](=O)[O-]	inactive: -18.3%
CC(C)(C)C(=O)NC(Sc1ccccc1)C(Cl)(Cl)Cl (stereo not given)	inactive: -5.87%
COC(=O)C1(C)COP(=O)(NCc2ccccc2)OC1 (stereo not given)	inactive: -0.37%
CC(=O)c1ccc(N2CC2c2ccncc2)cc1 (stereo not given)	inactive: 18.7%
N#C/C(=C\c1ccc(N(CCBr)CCBr)cc1)C(N)=O	inactive: -17.1%
C[C@H]1OP(=O)(Oc2ccccc2)C[C@@H]2O[C@@H]21 (stereo not given in full)	inactive: -21.1%
C[C@@H]1C=CCP(=O)(Oc2ccccc2)O1 (stereo not given in full)	inactive: -5.95%
Cc1ccccc1CN(C)C(=O)COC(=O)C(O)(c1ccccc1)c1ccccc1	inactive: -5.46%
CC(=O)Nc1ccc(Oc2c([N+](=O)[O-])cc([N+](=O)[O-])cc2[N+](=O)[O-])cc1	inactive: -6.72%
